The source of these data is paper PMC5440694 (Nature Communications, 2017).

Assay [1] addresses biotinylated HA0 ectodomain of A/Hong Kong/1/1968 (H3N2) (Influenza A virus A/Hong Kong/1/1968 …, UniProt Q91MA7, biotin on the BirA biotinylation site). As to conditions: both partners purified.
The target in assay [2] is biotinylated HA0 ectodomain of A/Japan/305/1957 (H2N2) (Influenza A virus A/Japan/305/1957 …, UniProt P03451, biotin on the BirA biotinylation site).
For assay [3], the target named is biotinylated HA0 ectodomain of A/WSN/1933 (H1N1) (Influenza A virus A/WSN/1933 (H1N1), UniProt I4EPC4, biotin on the BirA biotinylation site). The assay can be described thus: BLI. The following applies: both partners purified.
In assay [4] the target is HA1 (H3 numbering: residues 43-309) from A/Hong Kong/1/1968 (HK68/H3) (Influenza A virus A/Hong Kong/1/1968 …, strain). The assay can be described thus: crystal structure.

Where a chain is given by its changes, count along the chain named. Like-named read-outs stand apart in the source and are kept apart here. Where only a bound is given, the exact number is not on record here.

B1: wild-type C05 Fab (VVSAGW), expressed in insect cells (Fab, V domains shown)
VH: QVQLQESGGGLVQPGESLRLSCVGSGSSFGESTLSYYAVSWVRQAPGKGLEWLSIINAGGGDIDYADSVEGRFTISRDNSKETLYLQMTNLRVEDTGVYYCAKHMSMQQVVSAGWERADLVGDAFDVWGQGTMVTVSS
VL: DIQLTQSPSSLSASVGDRVTLTCQASQDIRKFLNWYQQKPGKGPKLLIYDASNLQRGVPSRFSGGGSGTDFTLIISSLQPEDVGTYYCQQYDGLPFTFGGGTKVVIK
Turning to B1, the results for the Kd in assay [1], in assay [2] (both partners purified) and in assay [3] were 328 ± 12 nM, 1700 ± 46 nM and 169.4 ± 1 nM, respectively.

B2: C05 Fab variant VTGSGW, expressed in insect cells (Fab, V domains shown)
VH: B1 VH with V111T, S112G, A113S
VL: B1 VL
For B2, the Kd in assay [2] is above 5000 nM; in assay [3] it was 1540 ± 42 nM.

B3: C05 Fab variant VPGSGW, expressed in insect cells (Fab, V domains shown)
VH: B1 VH with V111P, S112G, A113S
VL: B1 VL
As to B3, the binding result in assay [4] was “binds”.

B4: C05 Fab variant VVSSGW, expressed in insect cells (Fab, V domains shown)
VH: B1 VH with A113S
VL: B1 VL
Regarding B4, the Kd is above 5000 nM in assay [2] and 728 ± 20.5 nM in assay [3].

The term Kd denotes a measure of binding affinity in units of concentration. Low readings indicate higher affinity, high ones lower affinity.
